Source: patent US12605351B2, “Method for producing a composition comprising a 3-O-p-coumaroyl ester of tormentic acid from a plant cell culture, applications thereof as antiparasitic agent for the treatment of trypanosomiasis” (LUXEMBOURG INSTITUTE OF SCIENCE AND TECHNOLOGY, priority 2019, dated 2026)

System: Trypanosoma brucei brucei bloodstream forms (strain 427)
Assay: In vitro antitrypanosomal activity on Tbb BSF
Type: cell-based
Conditions: for SI (IC50WI38/IC50Tbb): Table 4; for SI (Selectivity Index): cytotoxicity in WI38 compared to Tbb
Protocol: Antiparasitic activities were evaluated in vitro on Trypanosoma brucei brucei bloodstream forms (strain 427) (Tbb BSF). Tbb BSF were cultured in vitro at 37° C. with 5% CO2 in HMI9 medium containing 10% heat-inactivated fetal bovine serum, […] ([…]) and L-cysteine ([…]).
In vitro tests were performed as previously described by Hoet S. et al. (Planta Med., 2004, 70, 407-413, doi:10.1055/s-2004-818967). Suramine (a commercial anti-trypanosomal drug) and camptothecin were used as positive controls. Stock solutions of compounds to be tested were prepared at a concentration of 10 mg/mL in DMSO. The solutions were further diluted in medium (described in 1.1) to give 0.1 mg/mL stock solutions. Extracts and compounds were tested in eight serial three-fold dilutions (final concentration range: 50-0.02 mg/L) in 96-well microliter plates. All tests were performed at least in duplicate.

Compound	SI (IC50WI38/IC50Tbb)	SI (Selectivity Index)
C[C@H]1[C@H](C)CC[C@]2(C(=O)O)CC[C@]3(C)C(=CC[C@@H]4[C@@]5(C)CC[C@H](OC(=O)CCc6ccccc6)C(C)(C)C5CC[C@]43C)[C@H]12 (stereo partly drawn) [Derivative (II-1), 3-O-hydrocinnamic ursolic acid]	64.0	
C[C@H]1[C@H](C)CC[C@]2(C(=O)O)CC[C@]3(C)C(=CC[C@@H]4[C@@]5(C)CC[C@H](OC(=O)CCc6ccc(F)cc6)C(C)(C)C5CC[C@]43C)[C@H]12 (stereo partly drawn) [Derivative (II-3), 3-O-parafluorophenylpropionic ursolic acid]	>67.3	
C[C@H]1[C@H](C)CC[C@]2(C(=O)O)CC[C@]3(C)C(=CC[C@@H]4[C@@]5(C)CC[C@H](OC(=O)CCc6cccc(F)c6)C(C)(C)C5CC[C@]43C)[C@H]12 (stereo partly drawn) [Derivative (II-4), 3-O-metafluorophenylpropionic ursolic acid]	>61.5	
C[C@H]1[C@H](C)CC[C@]2(C(=O)O)CC[C@]3(C)C(=CC[C@@H]4[C@@]5(C)CC[C@H](OC(=O)CCc6ccccc6F)C(C)(C)C5CC[C@]43C)[C@H]12 (stereo partly drawn) [Derivative (II-5), 3-O-orthofluorophenylpropionic ursolic acid]	>79.5	
CC1(C)CC[C@]2(C(=O)O)CC[C@]3(C)C(=CC[C@@H]4[C@@]5(C)CC[C@H](OC(=O)CCc6ccccc6)C(C)(C)C5CC[C@]43C)[C@@H]2C1 (stereo partly drawn) [Derivative (II-6), 3-O-hydrocinnamic oleanolic acid]	9.1	
CC1(C)CC[C@]2(C(=O)O)CC[C@]3(C)C(=CC[C@@H]4[C@@]5(C)CC[C@H](OC(=O)CCc6ccc(F)cc6)C(C)(C)C5CC[C@]43C)[C@@H]2C1 (stereo partly drawn) [Derivative (II-8), 3-O-parafluorophenylpropionic oleanolic acid]	5.7	
CC1(C)CC[C@]2(C(=O)O)CC[C@]3(C)C(=CC[C@@H]4[C@@]5(C)CC[C@H](OC(=O)CCc6cccc(F)c6)C(C)(C)C5CC[C@]43C)[C@@H]2C1 (stereo partly drawn) [Derivative (II-9), 3-O-metafluorophenylpropionic oleanolic acid]	12.1	
C[C@@H]1CC[C@]2(C(=O)O)CC[C@]3(C)C(=CC[C@@H]4[C@@]5(C)C[C@@H](O)[C@H](O)C(C)(C)[C@@H]5CC[C@]43C)[C@@H]2[C@]1(C)O [Tormentic acid]		3.5
Annurcoic acid [reference compound]		2.6
